Data as given in PubChem BioAssay AID504761 (Drosophila RNAi Screening Center, 2011)
In all, the deposit lists about 22,000 reagents; shown is an unselected part of those that have a named target and a result. Over the whole deposit, 116 (0.52%) are marked active. 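Calls depend on retest data that are not deposited; infection was ranked per plate without normalising between plates; the unit of the infection score is not given.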 Raw values vary from plate to plate and are shown uncorrected. Reagents against one gene are numbered here. A plus sign joins genes that one reagent is predicted to hit. Not given: the amount of reagent, the time to read-out.

Screen: 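Fly genes whose silencing reduces dengue virus type 2 infection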 (primary screen)
System: D.Mel-2 cells from Drosophila
Reagent: long dsRNA against Drosophila genes
Challenge: infection with dengue virus type 2; dose and infection time not stated
Measurement: 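Cells stained for dengue envelope protein and imaged; percent of infected cells per well on duplicate plates, ranked by infection, with stained nuclei counted for cell number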
Direction: infection score: higher = more virus-infected cells; cell count: higher = more cells in the well
Call rule: 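Very low infection ranking in both replicate wells (chance probability at most 0.065), then a retest showing infection dropped 1.5-fold or more at p below 0.05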
Calls: active = confirmed: knock-down lowers infection; inactive = not picked or not confirmed

gene | reagent | infection score, replicate 1 | infection score, replicate 2 | cell count, replicate 1 | cell count, replicate 2 | call
polyph (polyphemus) | 1 | 9.14 | 15.4 | 6937 | 4815 | inactive
CG18327 | 1 | 3.78 | 2.67 | 6834 | 6738 | inactive
CG18327 | 2 | 2.64 | 3.44 | 6591 | 6771 | inactive
CG14989 | 1 | 15.4 | 4.53 | 6080 | 6050 | inactive
CG14989 | 2 | 2.04 | 1.53 | 6138 | 5802 | inactive
His-Psi:CR31754 (pseudo) | 1 | 1.9 | 4.18 | 4643 | 4717 | inactive
CG4424 | 1 | 1.38 | 3.7 | 6894 | 6293 | inactive
CG13148 | 1 | 3.53 | 21.5 | 878 | 6864 | inactive
CG5196 | 1 | 12.9 | 26.1 | 6919 | 4797 | inactive
CG5196 | 2 | 5.75 | 6.74 | 6539 | 6568 | inactive
CG12299 | 1 | 15.2 | 21 | 5684 | 5264 | inactive
CG12299 | 2 | 8.13 | 7.07 | 5858 | 5972 | inactive
hpRNA:CR32205 + CG33255 (retired record) | 1 | 13.9 | 17.9 | 5457 | 6511 | inactive
CG14564 | 1 | 7.96 | 28.7 | 6696 | 5855 | inactive
CG14564 | 2 | 2.43 | 2.5 | 6142 | 6370 | inactive
Adat1 (Adenosine deaminase, tRNA-specific 1) | 1 | 9 | 8.3 | 4953 | 6131 | inactive
Adat1 (Adenosine deaminase, tRNA-specific 1) | 2 | 5.21 | 2.52 | 6393 | 6082 | inactive
Pfk (Phosphofructokinase) | 1 | 2.74 | 7.28 | 5650 | 6140 | inactive
Pfk (Phosphofructokinase) | 2 | 16.5 | 29.5 | 6305 | 4582 | inactive
mtTFB2 (mitochondrial transcription factor B2) | 1 | 8.6 | 22 | 6143 | 5615 | inactive
lectin-46Ca | 1 | 7.04 | 4.61 | 6522 | 6313 | inactive
lectin-46Ca | 2 | 8.26 | 0.95 | 5837 | 5999 | inactive
5-HT7 (5-hydroxytryptamine (serotonin) receptor 7) | 1 | 2.51 | 1.82 | 5612 | 5825 | inactive
5-HT7 (5-hydroxytryptamine (serotonin) receptor 7) | 2 | 7.66 | 18 | 5029 | 5116 | inactive
BomBc2 (Bomanin Bicipital 2) | 1 | – | 2.91 | 537 | 824 | inactive
BomBc2 (Bomanin Bicipital 2) | 2 | 35.5 | 6.34 | 5959 | 6402 | inactive
CG31294 | 1 | 5.57 | 4.72 | 6625 | 6394 | inactive
CG31294 | 2 | 3.69 | 2.03 | 6470 | 5858 | inactive
CG13801 | 1 | 1.11 | 5.96 | 6846 | 6005 | inactive
Msr-110 | 1 | 5.83 | 15.2 | 6058 | 4744 | inactive
Msr-110 | 2 | 2.74 | 2.17 | 6350 | 6359 | inactive
sle + CG12592 | 1 | 2.23 | 5.63 | 5923 | 6589 | inactive
sle + CG12592 | 2 | 3.4 | 9.45 | 6260 | 6257 | inactive
beta3GalTII (beta-1,3-Galactosyltransferase II) | 1 | 7.29 | – | 7245 | 450 | inactive
beta3GalTII (beta-1,3-Galactosyltransferase II) | 2 | 6.67 | 13.8 | 1019 | 6418 | inactive
CG12576 | 1 | 3.51 | 0.5 | 6007 | 5593 | inactive
CG12576 | 2 | 10.6 | 6.11 | 5086 | 5795 | inactive
p130CAS + Dic61B | 1 | 11.4 | 6.2 | 6724 | 6439 | inactive
pio (piopio) | 1 | 26.1 | 21.2 | 6129 | 6017 | inactive
pio (piopio) | 2 | 9.73 | 11.1 | 5281 | 4372 | inactive
Drice (Death related ICE-like caspase) | 1 | 1.74 | 4.4 | 6031 | 6543 | inactive
Drice (Death related ICE-like caspase) | 2 | 8.3 | 13 | 6422 | 7122 | inactive
Vps29 (Vacuolar protein sorting 29) | 1 | 2.49 | 1.04 | 6378 | 6910 | inactive
Icmt (Isoprenylcysteine carboxyl methyltransferase) | 1 | 6.47 | 0.6 | 6224 | 6659 | inactive
CG3735 | 1 | 8.13 | 22.8 | 5902 | 5684 | inactive
CG5707 | 1 | 6.46 | 21.5 | 6269 | 4844 | inactive
CG5707 | 2 | 1.5 | 3.82 | 6393 | 6149 | inactive
CG10098 | 1 | 11.1 | 23.5 | 5570 | 5766 | inactive
CG10098 | 2 | 11.1 | 4.66 | 6023 | 5841 | inactive
CG1902 | 1 | 13.8 | 2.3 | 5532 | 6093 | inactive
Lrt (Leucine-rich tendon-specific protein) | 1 | 2.84 | 1.02 | 6233 | 6075 | inactive
Lrt (Leucine-rich tendon-specific protein) | 2 | 3.43 | 5.49 | 6617 | 6508 | inactive
CG8665 | 1 | – | – | 379 | 386 | inactive
DAT (Dopamine transporter) | 1 | 26.5 | 29.5 | 6491 | 3357 | inactive
trio | 1 | 0.61 | 0.25 | 6683 | 6378 | inactive
trio | 2 | 1.81 | 2.02 | 6300 | 6289 | inactive
trio | 3 | 2.32 | 3.2 | 5775 | 6507 | inactive
CG13912 | 1 | 3.3 | 2.67 | 6117 | 6063 | inactive

Just “cell count, replicate 1” (4 entries from above):
CG14564 #1: 6696
CG14564 #2: 6142
Adat1 (Adenosine deaminase, tRNA-specific 1) #1: 4953
Adat1 (Adenosine deaminase, tRNA-specific 1) #2: 6393
